Results of unrelated studies side by side (data: NIAID ChemDB).

All rows: growth or infection tests; species: HIV-1; read by: RT activity; measure: EC50

Blank or dashed fields: not listed here. ECn is the concentration giving n% inhibition of infection, replication or growth. Rows are shuffled and stem from different studies.

{"smiles": "Cc1ccc(C(=O)OC[C@H]2O[C@H](n3cc(-c4ccc(-c5ccccc5)s4)c(N)nc3=O)C[C@@H]2OC(=O)c2ccc(C)cc2)cc1", "strain": "IIIB", "cells": "H9", "value": ">10 µg/mL"}
{"smiles": "Cc1cn([C@H]2C[C@H](N=[N+]=[N-])[C@@H](CO)O2)c(=O)[nH]c1=O", "strain": "7324-1 NRTI resistant recombinant", "changes": "RT-M41L D67N T69N K70R T215F K219E", "cells": "PBMC", "value": "0.108 µM"}
{"smiles": "CCOP(=O)(OCC)C(F)(F)C[C@@]1(F)CO[C@@H](n2cnc3c(N)ncnc32)C1", "cells": "PBMC", "value": "18.6 µM"}
{"smiles": "Nc1nc(=O)n([C@@H]2C[C@H](O)[C@@H](CO)O2)cc1-c1ccsc1", "strain": "IIIB", "cells": "H9", "value": ">10 µg/mL"}
{"smiles": "Cc1cn([C@H]2C[C@H](N=[N+]=[N-])[C@@H](CO)O2)c(=O)[nH]c1=O", "strain": "LAI", "cells": "PBMC", "value": "0.112 µM"}
{"smiles": "Nc1nc(=O)n([C@@H]2C[C@H](O)[C@@H](CO)O2)cc1-c1ccco1", "strain": "IIIB", "cells": "H9", "value": ">10 µg/mL"}
{"smiles": "Nc1ccn([C@H]2CC[C@@H](CO)O2)c(=O)n1", "strain": "LAV", "cells": "PBMC", "value": "0.011 µM"}
{"smiles": "Nc1ccn([C@@H]2C=C(F)[C@H](CO)O2)c(=O)n1", "strain": "LAI Laboratory isolate", "cells": "PBMC", "value": "0.03 µM"}
{"smiles": "Cc1ccnc2c1NC(=O)c1cccnc1N2C1CC1", "strain": "IIIB", "cells": "PBL (resting) + PBL", "value": "~0.03 µM"}
{"smiles": "NCCCCCCNC(=O)/C=C/c1cn([C@H]2C=C[C@@H](CO)O2)c(=O)[nH]c1=O", "strain": "LAI", "cells": "CEM + CEM-SS", "value": ">100 µM"}
{"smiles": "O=c1[nH]cnc2c1ncn2[C@H]1CC[C@@H](CO)O1", "strain": "SF162 R5", "cells": "PBL (activated) + PBL", "value": "9 µM"}
{"smiles": "Nc1nc(N)c2ncn([C@H]3CO[C@@H](CO)O3)c2n1", "strain": "IIIB", "cells": "MT-2", "value": "0.54 µM"}
{"smiles": "Nc1nc2c(ncn2[C@H]2C[C@@](F)(CC(F)(F)P(=O)(O)O)CO2)c(=O)[nH]1", "cells": "PBMC", "value": "55.7 µM"}
{"smiles": "COC(=O)[C@H](C)NP(=O)(OC[C@@H]1C[C@]12C[C@@H]2n1cnc2c(N)ncnc21)Oc1ccccc1", "cells": "CEM + CEM-SS", "value": "3.5 µM"}
{"smiles": "COC(=O)[C@H](C)NP(=O)(OC[C@@H]1C=C[C@H](n2cc(C)c(=O)[nH]c2=O)O1)Oc1ccc(Br)cc1", "strain": "7324-1 NRTI resistant recombinant", "changes": "RT-M41L D67N T69N K70R T215F K219E", "cells": "PBMC", "value": "0.0008 µM"}
{"smiles": "Nc1nc2c(ncn2[C@H]2CO[C@@H](CO)O2)c(=O)[nH]1", "strain": "IIIB", "cells": "Jurkat cells", "value": "0.34 µM"}
{"smiles": "CCCCCCCCCCCCCCCCOCC(Cl)COP(=O)([O-])OCC[N+](C)(C)C", "strain": "IIIB", "cells": "H9", "value": "~1 µM"}
{"smiles": "CCOP(=O)(CO[C@H]1C[C@@H](n2cnc3c(N)ncnc32)C(F)(F)C1)OCC", "strain": "LAI", "cells": "PBMC", "value": "42 µM"}
{"smiles": "COC(=O)CCCCCNC(=O)/C=C/c1cn([C@H]2C=C[C@@H](CO)O2)c(=O)[nH]c1=O", "strain": "IIIB", "cells": "MT-4", "value": ">100 µM"}
{"smiles": "Cc1cn([C@H]2C=C[C@@H](COC(=O)CNC(=O)CCC(=O)N3CCN(CCNC(=S)Nc4ccc(Br)cn4)CC3)O2)c(=O)[nH]c1=O", "strain": "LAI", "cells": "CEM + CEM-SS", "value": "0.17 µM"}
{"smiles": "Cc1cc(C)cc(C(=O)c2cc(Cl)ccc2OCCN2CCC(=O)NC2=O)c1", "conditions": "pseudotyped", "changes": "Y181C", "value": "1.5 µM"}
{"smiles": "Cc1cn([C@H]2C[C@H](N=[N+]=[N-])[C@@H](CO)O2)c(=O)[nH]c1=O", "strain": "IIIB", "cells": "PBL (resting) + PBL", "value": "0.033 µM"}
{"smiles": "Cc1cn([C@H]2C=C[C@@H](CO)O2)c(=O)[nH]c1=O", "strain": "LAV", "cells": "PBMC", "value": "0.0088 µM"}
{"smiles": "Cc1ccnc2c1NC(=O)c1cccnc1N2C1CC1", "conditions": "pseudotyped", "value": "0.01 µM"}
{"smiles": "CC(C)(C)NC(=O)[C@@H]1CN(Cc2cccnc2)CCN1C[C@@H](O)C[C@@H](Cc1ccccc1)C(=O)N[C@H]1c2ccccc2C[C@H]1O", "strain": "52534-2 NRTI resistant recombinant", "changes": "RT-M41L T69ins L74V M184V L210W T215Y", "cells": "PBMC", "value": "0.0122 µM"}
{"smiles": "CCc1cn([C@H]2C[C@H](N)[C@@H](CO)O2)c(=O)[nH]c1=O", "strain": "LAV", "cells": "PBMC", "value": "<1 µM"}
{"smiles": "O=c1[nH]cnc2c1ncn2[C@H]1CC[C@@H](CO)O1", "strain": "Clinical isolate (RT M41L)", "changes": "RT-M41L", "cells": "MT-4", "value": "2.4 µM"}
{"smiles": "O=c1[nH]c(=O)n([C@H]2C=C[C@@H](CO)O2)cc1C#CCCCCO", "strain": "LAI", "cells": "CEM + CEM-SS", "value": "50 µM"}
{"smiles": "CCOP(=O)(OCC)C(F)(F)C[C@@]1(F)CO[C@@H](n2cc(C)c(=O)[nH]c2=O)C1", "cells": "PBMC", "value": "90 µM"}
{"smiles": "Nc1ccn([C@@H]2CS[C@H](CO)O2)c(=O)n1", "strain": "7295-1 NRTI resistant recombinant", "changes": "RT-D67N T69N K70R M184V T215F K219Q", "cells": "PBMC", "value": ">10 µM"}
{"smiles": "CONc1ccn([C@H]2C[C@H](N=[N+]=[N-])[C@@H](CO)O2)c(=O)n1", "strain": "LAV-Bru", "cells": "CEM-C113 + CEM/C113", "value": "177 µM"}
{"smiles": "CCOP(=O)(OCC)C(F)(F)C[C@@]1(F)CO[C@@H](n2cnc3c(Cl)nc(N)nc32)C1", "cells": "PBMC", "value": "48.6 µM"}
{"smiles": "Nc1ncnc2c1ncn2CCOCP(=O)(O)O", "strain": "LAI", "cells": "PBMC", "value": "4.4 µM"}
{"smiles": "O=c1[nH]c(=O)n([C@H]2C=C[C@@H](CO)O2)cc1C#CCCOC1CCCCO1", "strain": "LAI", "cells": "CEM + CEM-SS", "value": "110 µM"}
{"smiles": "[N-]=[N+]=N[C@H]1C[C@H](n2ccc(=S)[nH]c2=O)O[C@@H]1CO", "strain": "LAV-Bru", "cells": "CEM-C113 + CEM/C113", "value": "0.07 µM"}
{"smiles": "O=c1[nH]c(=O)n([C@H]2C=C[C@@H](CO)O2)cc1C#CCO", "strain": "LAI", "cells": "CEM + CEM-SS", "value": ">100 µM"}
{"smiles": "O=C(CCC(=O)N1CCN(CCNC(=S)Nc2ccc(Br)cn2)CC1)NCC(=O)OC[C@@H]1CC[C@H](n2ccc(=O)[nH]c2=O)O1", "strain": "IIIB", "cells": "MT-4", "value": ">100 µM"}

For reference, 5 entries again:

| smiles | conditions | strain | changes | cells | value |
|---|---|---|---|---|---|
| Nc1ccn([C@@H]2CS[C@H](CO)O2)c(=O)n1 | - | 7295-1 NRTI resistant recombinant | RT-D67N T69N K70R M184V T215F K219Q | PBMC | >10 µM |
| COC(=O)[C@H](C)NP(=O)(OC[C@@H]1C[C@]12C[C@@H]2n1cnc2c(N)ncnc21)Oc1ccccc1 | - | - | - | CEM + CEM-SS | 3.5 µM |
| CCOP(=O)(OCC)C(F)(F)C[C@@]1(F)CO[C@@H](n2cnc3c(Cl)nc(N)nc32)C1 | - | - | - | PBMC | 48.6 µM |
| O=c1[nH]cnc2c1ncn2[C@H]1CC[C@@H](CO)O1 | - | SF162 R5 | - | PBL (activated) + PBL | 9 µM |
| Cc1cc(C)cc(C(=O)c2cc(Cl)ccc2OCCN2CCC(=O)NC2=O)c1 | pseudotyped | - | Y181C | - | 1.5 µM |